In PubChem BioAssay AID1445 (SRMLSC, 2008) one finds inhibition data, which are given here for 101 compounds.

Protein sequences, listed by entry. Tags and fused reporters are not part of them. Lines headed by an entry give the natural chain unless they say otherwise; changes in a name come on top.
UniProt O96935: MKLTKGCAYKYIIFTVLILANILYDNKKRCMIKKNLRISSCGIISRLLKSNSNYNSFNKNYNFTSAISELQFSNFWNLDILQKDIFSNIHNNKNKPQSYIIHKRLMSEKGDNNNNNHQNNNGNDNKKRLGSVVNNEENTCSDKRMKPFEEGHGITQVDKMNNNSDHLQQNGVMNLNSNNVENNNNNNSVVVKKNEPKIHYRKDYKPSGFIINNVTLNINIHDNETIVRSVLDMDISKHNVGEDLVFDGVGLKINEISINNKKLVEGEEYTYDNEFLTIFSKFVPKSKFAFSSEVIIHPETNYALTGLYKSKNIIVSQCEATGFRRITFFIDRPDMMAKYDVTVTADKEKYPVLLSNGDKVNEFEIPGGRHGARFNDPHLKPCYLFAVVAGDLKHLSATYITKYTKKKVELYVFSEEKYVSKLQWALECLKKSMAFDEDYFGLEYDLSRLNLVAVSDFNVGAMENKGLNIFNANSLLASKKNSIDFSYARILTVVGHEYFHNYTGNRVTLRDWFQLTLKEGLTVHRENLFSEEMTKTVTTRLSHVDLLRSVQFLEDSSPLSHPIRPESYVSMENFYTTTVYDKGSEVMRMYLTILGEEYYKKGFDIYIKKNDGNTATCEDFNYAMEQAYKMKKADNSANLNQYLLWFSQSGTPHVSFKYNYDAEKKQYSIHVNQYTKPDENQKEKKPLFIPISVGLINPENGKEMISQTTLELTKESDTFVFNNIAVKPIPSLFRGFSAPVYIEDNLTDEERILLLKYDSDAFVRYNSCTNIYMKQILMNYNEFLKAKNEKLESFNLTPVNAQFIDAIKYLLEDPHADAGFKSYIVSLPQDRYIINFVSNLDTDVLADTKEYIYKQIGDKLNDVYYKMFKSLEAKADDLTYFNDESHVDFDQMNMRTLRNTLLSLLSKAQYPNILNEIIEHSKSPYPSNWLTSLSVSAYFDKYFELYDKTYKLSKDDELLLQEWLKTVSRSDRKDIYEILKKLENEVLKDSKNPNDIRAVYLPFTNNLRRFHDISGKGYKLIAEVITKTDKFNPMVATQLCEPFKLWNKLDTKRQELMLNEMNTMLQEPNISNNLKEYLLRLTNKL

Several values for one entry are separate records, joined by “and”; a condition that tells them apart may be missing. Equal values may be shown once. Only a part is listed here, and it is no random draw. Entries with a potency or affinity are not part of this list. Activity calls are given as the source filed them.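 Rule for the calls: active = primary inhibition above the hit cutoff, then over 50% inhibition at one or more dose response concentrations (cut at about 23% in these data, passing the limit was not always enough); inconclusive = conflicting primary data, or primary hits not chosen for dose response; inactive = low primary inhibition, or under 50% at every dose.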

The target of this assay is Aminopeptidase N (Plasmodium falciparum (isolate 3D7)) (UniProt O96935). Briefly: P. falciparum M1AAP inhibitors, biochemical, fluorogenic H-Leu-NHMec substrate, 1536-well (AID 1445).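 Note: plate controls were DMSO full reaction for no effect and no enzyme background for full effect.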 Particulars: recombinant M1AAP, H-Leu-NHMec fluorogenic kinetic assay; at 30 µM; hits give high values.
The inhibition is the change of the read-out against control, counted positive when it falls. On to `O=P(Nc1ccccn1)(c1ccc(Br)cc1)c1ccc(Br)cc1`, for which the inhibition was inactive: 2.17%. In the case of `O=P(Nc1nc2ccccc2s1)(c1ccccc1)c1ccccc1`, the inhibition was inactive: 1.55%. Turning to `C[C@H]1OP(=O)(Oc2ccccc2)[C@H](O)[C@H](O)[C@H]1N=[N+]=[N-]` (stereo partly specified), the inhibition was inactive: 0.85%. As to `O=[As](O)(c1ccccc1)c1ccc(O)cc1`, the inhibition is inactive: 12.2%. Consider `O=[N+]([O-])c1ncn(CCn2cnc([N+](=O)[O-])n2)n1`, for which the inhibition is inactive: 0.21%. With `CC(=O)NC(SC(=S)N(C)C)C(Cl)(Cl)Cl` (stereo unspecified), the inhibition is inactive: 4.83%. For `O=C(OC1CN2CCC1CC2)c1cccc(Cl)c1` (stereo unspecified), the inhibition is inactive: -0.6%. As for `Nc1ccc([As](=O)(O)c2ccc([N+](=O)[O-])cc2)cc1`, the inhibition was inactive: 0.76%. As to `C(Cc1nn[nH]n1)Cc1nn[nH]n1`, the inhibition was inactive: 2.99%.

Regarding `O=P(Nc1nccs1)(c1ccccc1)c1ccccc1`, the inhibition is inactive: 7.3%. Take `CC(C)C(=O)NC(Sc1ccccc1)C(Cl)(Cl)Cl` (stereo unspecified): the inhibition was inactive: 8.79%. Regarding `c1nnnn1CCn1cnnn1`, the inhibition is inactive: 6.58%. For `O=P1(Nc2nc3ccc(Cl)cc3s2)COc2ccccc2O1` (stereo unspecified), the inhibition is inactive: -3.71%. To `CCOc1ccc(C2=NCC(CBr)S2)cc1` (stereo unspecified) belongs inactive: 2.16%; to `CC(C)(C)C(=O)NC(Sc1ccccc1)C(Cl)(Cl)Cl` (stereo unspecified), inactive: 2.07%. Regarding `CCN(CC)CCOC(=O)C(O)(c1ccccc1)c1ccccc1`, the inhibition was inactive: 6.72%.

`C[C@@H]1C=CCP(=O)(Oc2ccccc2)O1` (stereo partly specified): the inhibition was inactive: -1.91%.

As to `C[C@H]1OP(=O)(Oc2ccccc2)C[C@@H]2O[C@@H]21` (stereo partly specified), the inhibition was inactive: -1.49%. With `CC(=O)Nc1ccc([As](=O)(O)O)c(O)c1`, the inhibition was inactive: 3.93%. Consider `CC(=O)Nc1ccc(Oc2c([N+](=O)[O-])cc([N+](=O)[O-])cc2[N+](=O)[O-])cc1`, for which the inhibition was inactive: 7.24%.

Consider `c1ccc(-c2nn[nH]n2)c(-c2nn[nH]n2)c1`, for which the inhibition is inactive: 5.31%. To `CCOC(=O)NC(Sc1ccccc1)C(Cl)(Cl)Cl` (stereo unspecified) belongs inactive: 1.1%; to `Cc1ccc(NP(=O)(Oc2cccc(C)c2)Oc2cccc(C)c2)nc1`, inactive: -3.27%; to `O=C(NC1CCS(=O)(=O)C1)NP(=S)(Oc1ccccc1)Oc1ccccc1` (stereo unspecified), inactive: -0.9%. `CCNC(=S)/N=C(\N)N[N+](=O)[O-]`: the inhibition is inactive: 0.69%. Turning to `CCC(=O)N1C2C3N(C(=O)CC)C1C1N(C(=O)CC)C(C(N1C(=O)CC)N3C(=O)CC)N2C(=O)CC`, the inhibition was inactive: 18.6%.

As to `COC(=O)c1cc2c(s1)N=C(c1ccccc1)N(C)P2(=O)N1CCOCC1` (stereo unspecified), the inhibition was inactive: 12.9%. To `Cc1ccc(OP(=O)(Nc2ccccn2)Oc2ccc(C)cc2)cc1` belongs inactive: 16.3%; to `CC(=O)NC(SC(=S)N(CC(C)C)CC(C)C)C(Cl)(Cl)Cl` (stereo unspecified), inactive: -0.17%. Take `Cc1ccccc1OP(=O)(Nc1ccccn1)Oc1ccccc1C`: the inhibition is inactive: 3.37%.

On to `CN(C)C(=O)Oc1noc2ccccc12`, for which the inhibition is inactive: 5.23%. To `O=c1c2cc([N+](=O)[O-])ccc2[nH]c2c([N+](=O)[O-])cc([N+](=O)[O-])cc12` belongs inactive: 1.51%; to `O=P(Nc1nc2ccc(Cl)cc2s1)(c1ccccc1)c1ccccc1`, inactive: -0.67%; to `O=C(O)c1ccccc1[As](=O)(O)O`, inactive: -1.33%. As to `CC(=O)Nc1ccc([As](=O)(O)O)cc1`, the inhibition was inactive: -0.06%. To `CCOP(=O)(Nc1ccccc1)OCC` belongs inactive: 2.64% and inactive: -3.06%; to `Cc1cc(SC(NC(=O)c2ccc(F)cc2)C(Cl)(Cl)Cl)ncn1` (stereo unspecified), inactive: 3.6%. `Cc1ccc(NP(=O)(Oc2ccccc2F)Oc2ccccc2F)nc1`: the inhibition is inactive: -4.38%. For `Nc1cccc2ccc([As](=O)(O)O)cc12`, the inhibition is inactive: 3.08%.

On to `CCN(N=Nc1nonc1N)c1nonc1N`, for which the inhibition was inactive: 5.71%. Turning to `Cc1ccc(N/C(=N/P(=O)(N2CCOCC2)N2CCOCC2)N2CCOCC2)cc1`, the inhibition is inactive: -1.39%. Regarding `NC(=O)c1cc([N+](=O)[O-])cc([N+](=O)[O-])c1N`, the inhibition was inactive: 11.2%. For the compound `Clc1ccc(Cl)c(NC2=NCC(CBr)S2)c1` (stereo unspecified), the inhibition was inactive: 5.63%.

For `CN1CCCC(OC(=O)C(c2ccccc2)c2ccccc2)C1` (stereo unspecified), the inhibition is inactive: 9.14%. In the case of `Cc1ccc(OP(=O)(Nc2nccs2)Oc2ccc(C)cc2)cc1` it was inactive: 3.27%; in that of `Oc1ccccc1CNc1ccccn1`, inactive: 11.2%; in that of `Cc1c2non([O-])c-2c(C)[n+](=O)[n+]1[O-]`, inactive: 2.17%. For the compound `O=C(NC(Sc1ccncn1)C(Cl)(Cl)Cl)c1ccccc1` (stereo unspecified), the inhibition was inactive: -0.86%. For the compound `CC(C)CC(=O)NC(Sc1ccc(Cl)cc1)C(Cl)(Cl)Cl` (stereo unspecified), the inhibition was inactive: -2.36%. `COc1ccc(C2=NCC(CBr)S2)cc1` (stereo unspecified): the inhibition is inactive: -0.61%. As for `Cc1ccc(NP(=O)(Oc2ccccc2)Oc2ccccc2)nc1`, the inhibition is inactive: 0.27%. In the case of `C=C1C/C(=C/C)C(=O)O[C@@H]2CCN3CC=C(COC(=O)[C@]1(C)O)[C@H]23`, the inhibition is inactive: 6.29%. Regarding `O=[N+]([O-])c1cc([N+](=O)[O-])c(CCNc2ccccc2)c([N+](=O)[O-])c1`, the inhibition is inactive: 10.4%. `CCc1nc2c(n1)c1c(non1O)c1c2no[n+]1[O-]`: the inhibition was inactive: -0.45%. To `CC(=O)N1C2C3N(C(C)=O)C1C1N(C(C)=O)C(C(N1C(C)=O)N3C(C)=O)N2C(C)=O` belongs inactive: -5.56%. As for `O=[N+]([O-])c1cccc2n[nH]nc12`, the inhibition is inactive: 11.7%. For `CCN(/C(=N/P(=O)(N1CCOCC1)N1CCOCC1)N1CCOCC1)c1ccc(OC)cc1`, the inhibition was inactive: -0.41%.

Regarding `Nc1ccc([As](=O)(O)c2ccc(N)cc2)cc1`, the inhibition was inactive: 8.22%. In the case of `C[N+]1=C2C=CC=CC=C2SC12C([N+](=O)[O-])=CC([N+](=O)[O-])=C[C-]2[N+](=O)[O-]` (stereo unspecified) it was inactive: 16.2%; in that of `CC1CCN(C(=O)Oc2c(Cl)cc(Cl)c3cccnc23)CC1`, inactive: 1.89%.

Regarding `CC(C)=N/N=C(\N)N[N+](=O)[O-]`, the inhibition was inactive: -3.42%. In the case of `CN(C)C(=O)OCCc1n(C)cc[n+]1C` it was inactive: -0.75%. Turning to `O=C(Nc1cc([As](=O)(O)O)ccc1O)c1ccccc1`, the inhibition was inactive: -1.73%. Take `O=[N+]([O-])c1ncn(CCn2ncnc2[N+](=O)[O-])n1`: the inhibition is inactive: 0.76%. To `CC(C)(C)C(=O)NC(Sc1ccncn1)C(Cl)(Cl)Cl` (stereo unspecified) belongs inactive: 6.53%; to `O=C(O)CNc1ccc([As](=O)(O)O)cc1`, inactive: -1.04%.

Regarding `O=[N+]([O-])c1cccc(NC2=NCC(CBr)S2)c1` (stereo unspecified), the inhibition is inactive: -1.78%.

Turning to `CCOC(=O)Nc1ccc([As](=O)(O)O)c(O)c1`, the inhibition is inactive: 3.03%. Turning to `Cc1cc(SC(NC(=O)c2ccccc2)C(Cl)(Cl)Cl)nc(C(C)C)n1` (stereo unspecified), the inhibition was inactive: 2.21%. Take `CCOC(=O)Nc1cccc([As](=O)(O)O)c1`: the inhibition is inactive: 1.93%.

As for `Cc1cc(SC(NC=O)C(Cl)(Cl)Cl)ncn1` (stereo unspecified), the inhibition is inactive: -4.26%. With `O=P(Nc1ccccn1)(c1cccc2ccccc12)c1cccc2ccccc12`, the inhibition was inactive: 3.93%. To `O=[N+]([O-])c1ccc(Nc2ccc(Oc3ccc([N+](=O)[O-])cc3[N+](=O)[O-])cc2)c([N+](=O)[O-])c1` belongs inactive: 3.78%; to `COP1(=S)c2c(C)nn(CCC#N)c2N=C(c2ccc(F)cc2)N1C` (stereo unspecified), inactive: -1.62%; to `O=C(COc1ccccc1)OC1CN2CCC1CC2` (stereo unspecified), inactive: 2.01%. With `CCOC(=O)c1ccc(NC(=O)C(C)(CCl)SC)cc1` (stereo unspecified), the inhibition is inactive: 1.83%. On to `CCC(C)N(CC(C)C)C(=S)SC(NC(C)=O)C(Cl)(Cl)Cl` (stereo unspecified), for which the inhibition is inactive: 6.12%.

For `Cc1c2c(nc3ccccc13)SC(C(Cl)Cl)C2` (stereo unspecified), the inhibition was inactive: 7.47%. On to `O=C(OC1CN2CCC1CC2)C12CC3CC(CC(C3)C1)C2` (stereo unspecified), for which the inhibition is inactive: 3.66%. With `Cc1cc(=O)[nH]c(N[N+](=O)[O-])n1`, the inhibition is inactive: 5.14%. Turning to `COc1ccc2nc(NP(=O)(c3ccccc3)c3ccccc3)sc2c1`, the inhibition was inactive: 2.85%. With `COc1cc(I)ccc1[As](=O)(O)O`, the inhibition is inactive: 2.09%. Take `COc1ccc(N/C(=N/P(=O)(N2CCOCC2)N2CCOCC2)N2CCOCC2)cc1`: the inhibition was inactive: 6.36%. Consider `O=[As](O)(c1ccc(O)cc1)c1ccccc1O`, for which the inhibition was inactive: 14.7%. For the compound `C[As](=O)(O)c1cccc(C(=O)O)c1`, the inhibition was inactive: 6.19%. On to `Cc1ccc(OP(=O)(Nc2ccc([N+](=O)[O-])cn2)Oc2ccc(C)cc2)cc1`, for which the inhibition was inactive: 1.72%. Regarding `Cc1ccc2nc3c(c(C)c2c1)CC(C(Cl)Cl)S3` (stereo unspecified), the inhibition is inactive: 2.2%. In the case of `ClCCSc1nnc(-c2cccnc2)o1`, the inhibition was inactive: 1.22%. To `CC(C)c1ccc(OP(=O)(Nc2ccccn2)Oc2ccccc2F)cc1` (stereo unspecified) belongs inactive: 2.72%; to `CCN(CC)C(=S)SC(NC=O)C(Cl)(Cl)Cl` (stereo unspecified), inactive: 5.9%; to `CC(C)NC(=O)NP(=O)(Oc1ccccc1)Oc1ccccc1`, inactive: 2.81%. Regarding `O=[N+]([O-])c1cc([N+](=O)[O-])c(-c2ccn[nH]2)s1`, the inhibition was inactive: 8.61%. As to `CCOP1(=S)c2c(C)nn(CCC#N)c2N=C(c2ccccc2F)N1C` (stereo unspecified), the inhibition was inactive: 6.47%. Regarding `O=P(Nc1nccs1)(c1ccccc1)c1nc2ccccc2s1` (stereo unspecified), the inhibition was inactive: 0.07%. Turning to `O=P(Nc1nccs1)(Oc1ccccc1)Oc1ccccc1`, the inhibition is inactive: 6.54%. With `CS(=O)(=O)c1cc([N+](=O)[O-])c2no[n+]([O-])c2c1`, the inhibition is inactive: 19.1%.

In the case of `O=C(O)COc1ccc([As](=O)(O)O)cc1[N+](=O)[O-]`, the inhibition was inactive: 0.26%. As to `Nc1ccccc1[As](=O)(O)c1ccccc1`, the inhibition is inactive: 1.5%. Consider `CCOP1(=S)c2c(C)nn(CCC#N)c2N=C(c2ccc(F)cc2)N1C` (stereo unspecified), for which the inhibition was inactive: -8.14%. In the case of `CN(C(=O)Cc1ccccc1)[C@@H]1CC[C@]2(CCCO2)C[C@H]1N1CCCC1`, the inhibition is inactive: 0.98%. With `O=[N+]([O-])c1ccc2c(c1)nnn2O`, the inhibition is inactive: 3.45%.
